Data as given in PubChem BioAssay AID504761 (Drosophila RNAi Screening Center, 2011)

Test: 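Genome-wide fly cell screen for genes dengue virus requires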 (primary screen)
Cells: D.Mel-2 cells from Drosophila
Knock-down reagent: long dsRNA against Drosophila genes
Treatment: infection with dengue virus type 2; dose and infection time not stated
Measurement: 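Per well on two replicate plates, imaging gave the percent of cells positive for viral envelope protein, ranked by infection, and a nuclear count of cells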
Reading the numbers: infection score: higher = more virus-infected cells; cell count: higher = more cells in the well
Hit rule: 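Very low infection ranking in both replicate wells (chance probability at most 0.065), then a retest showing infection dropped 1.5-fold or more at p below 0.05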
Calls: active = confirmed: knock-down lowers infection; inactive = not picked or not confirmed
The deposit covers about 22,000 reagents; this is an unselected part of those that have a named target and a result. Of all reagents, 116 (0.52%) got an active call. 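Calls depend on retest data that are not deposited; infection was ranked per plate without normalising between plates; the unit of the infection score is not given.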 The raw values are shown without normalisation. A number with no mark means an inactive call. The record does not give: the amount of reagent, the time to read-out.

| Target gene | dsRNA | infection score, replicate 1 | infection score, replicate 2 | cell count, replicate 1 | cell count, replicate 2 |
| --- | --- | --- | --- | --- | --- |
| Corin | DRSC06818 | 1.9 | 1.34 | 6253 | 6707 |
| Corin | DRSC28927 | 16.5 | 21.8 | 5724 | 5165 |
| CG11619 | DRSC09849 | 4.9 | 2.27 | 6980 | 7104 |
| CG7457 | DRSC10849 | 3.3 | 1.3 | 6030 | 5477 |
| CG7457 | DRSC27107 | 36.7 | 13.6 | 5163 | 2087 |
| ND-B14.7 | DRSC04544 | 11.5 | 15.3 | 4731 | 6295 |
| Cdk7 | DRSC18451 | 1.05 | 2.48 | 5735 | 5559 |
| Cdk7 | DRSC23327 | 4.47 | 18.1 | 6156 | 6487 |
| Usp8 | DRSC15876 | 14.8 | 4.47 | 6378 | 6155 |
| Sdb | DRSC06272 | 21 | 9.25 | 6206 | 6446 |
| Sdb | DRSC06273 | 10 | 11.6 | 6183 | 6504 |
| Sdb | DRSC07155 | 8.01 | 16.3 | 6391 | 6437 |
| CG7079 | DRSC16192 | 5.99 | 5.71 | 6392 | 6273 |
| CG7079 | DRSC29827 | 13.1 | 4.09 | 6762 | 6161 |
| CG1738 | DRSC19772 | 4.83 | 3.12 | 4923 | 5454 |
| CG1738 | DRSC29312 | – | – | 413 | 264 |
| CG15199 | DRSC19646 | 2.7 | 6.22 | 6551 | 5936 |
| pont | DRSC17029 | 24 | 28.9 | 4555 | 4793 |
| Nost | DRSC18037 | 2 | 6.08 | 6299 | 6431 |
| Nost | DRSC18338 | 4.64 | 19.1 | 4960 | 5525 |
| Nost | DRSC26627 | 0.88 | 2.01 | 6235 | 6008 |
| Rab40 | DRSC19820 | 5.36 | 32.5 | 932 | 4374 |
| CG9164 | DRSC19087 | 1.87 | 4.5 | 6112 | 6202 |
| CG9164 | DRSC20162 | 3.4 | 2.8 | 6319 | 6862 |
| CG9164 | DRSC23596 | 15.4 | 7.95 | 6212 | 6517 |
